{
  "source": "patent US20220033460A1",
  "about": "“IDENTIFICATION AND USE OF T CELL EPITOPES IN DESIGNING DIAGNOSTIC AND THERAPEUTIC APPROACHES FOR COVID-19” (priority 2020, published 2022)",
  "data": [
    {"test_system": "CD8+ T cells", "type": "cell-based, human", "details": "cells of the TCR clonotype specific for the epitope / HLA class I of the same line", "values": [
      {"molecule": "TCR_30: TCR to … / B*07:02 (protein) TCR alpha: SQQPVQSPQAVILREGEDAVINCSSSKALYSVHWYRQKHGEAPVFLMILLKGGEQKGHEKISASFNEKKQQSSLYLTASQLSYSGTYFCGTAFFNAGGTSYGKLTFGQGTILTVHPNIQNPDPAVYQLRDSKSSDKSVCLFTDFDSQTNVSQSKDSDVYITDKTVLDMRSMDFKSNSAVAWSNKSDFACANAFNNSIIPEDTFFPSPESSCDVKLVEKSFETDTNLNFQNLSVIGFRILLLKVAGFNLLMTLRLWSS TCR beta: NAGVTQTPKFRILKIGQSMTLQCTQDMNHNYMYWYRQDPGMGLKLIYYSVGAGITDKGEVPNGYNVSRSTTEDFPLRLELAAPSQTSVYFCASSPGASYNEQFFGPGTRLTVLEDLKNVFPPKVAVFEPSEAEISHTQKATLVCLATGFYPDHVELSWWVNGKEVHSGVSTDPQPLKEQPALNDSRYCLSSRLRVSATFWQNPRNHFRCQVQFYGLSENDEWTQDRAKPVTQIVSAEAWGRADCGFTSESYQQGVLSATILYEILLGKATLYAVLVSALVLMAMVKRKDSRG", "No. of Cells": 4},
      {"molecule": "TCR_37: TCR to … / A*02:01 (protein) TCR alpha: AQKITQTQPGMFVQEKEAVTLDCTYDTSDPSYGLFWYKQPSSGEMIFLIYQGSYDQQNATEGRYSLNFQKARKSANLVISASQLGDSAMYFCAMRGAINTGTASKLTFGTGTRLQVTLDIQNPDPAVYQLRDSKSSDKSVCLFTDFDSQTNVSQSKDSDVYITDKTVLDMRSMDFKSNSAVAWSNKSDFACANAFNNSIIPEDTFFPSPESSCDVKLVEKSFETDTNLNFQNLSVIGFRILLLKVAGFNLLMTLRLWSS TCR beta: DAGITQSPRHKVTETGTPVTLRCHQTENHRYMYWYRQDPGHGLRLIHYSYGVKDTDKGEVSDGYSVSRSKTEDFLLTLESATSSQTSVYFCAISESWTSGIGREETQYFGPGTRLLVLEDLKNVFPPKVAVFEPSEAEISHTQKATLVCLATGFYPDHVELSWWVNGKEVHSGVSTDPQPLKEQPALNDSRYCLSSRLRVSATFWQNPRNHFRCQVQFYGLSENDEWTQDRAKPVTQIVSAEAWGRADCGFTSESYQQGVLSATILYEILLGKATLYAVLVSALVLMAMVKRKDSRG", "No. of Cells": 3},
      {"molecule": "TCR_32: TCR to … / A*02:01 (protein) TCR alpha: QTVTQSQPEMSVQEAETVTLSCTYDTSESDYYLFWYKQPPSRQMILVIRQEAYKQQNATENRFSVNFQKAAKSFSLKISDSQLGDAAMYFCAYMDNNDMRFGAGTRLTVKPNIQNPDPAVYQLRDSKSSDKSVCLFTDFDSQTNVSQSKDSDVYITDKTVLDMRSMDFKSNSAVAWSNKSDFACANAFNNSIIPEDTFFPSPESSCDVKLVEKSFETDTNLNFQNLSVIGFRILLLKVAGFNLLMTLRLWSS TCR beta: DSGVTQTPKHLITATGQRVTLRCSPRSGDLSVYWYQQSLDQGLQFLIQYYNGEERAKGNILERFSAQQFPDLHSELNLSSLELGDSALYFCASSDGQGGYGYTFGSGTRLTVVEDLNKVFPPEVAVFEPSEAEISHTQKATLVCLATGFFPDHVELSWWVNGKEVHSGVSTDPQPLKEQPALNDSRYCLSSRLRVSATFWQNPRNHFRCQVQFYGLSENDEWTQDRAKPVTQIVSAEAWGRADCGFTSVSYQQGVLSATILYEILLGKATLYAVLVSALVLMAMVKRKDF", "No. of Cells": 4},
      {"molecule": "TCR_33: TCR to … / A*02:01 (protein) TCR alpha: AQRVTQPEKLLSVFKGAPVELKCNYSYSGSPELFWYVQYSRQRLQLLLRHISRESIKGFTADLNKGETSFHLKKPFAQEEDSAMYYCALGALTGQNFVFGPGTRLSVLPYIQNPDPAVYQLRDSKSSDKSVCLFTDFDSQTNVSQSKDSDVYITDKTVLDMRSMDFKSNSAVAWSNKSDFACANAFNNSIIPEDTFFPSPESSCDVKLVEKSFETDTNLNFQNLSVIGFRILLLKVAGFNLLMTLRLWSS TCR beta: EADIYQTPRYLVIGTGKKITLECSQTMGHDKMYWYQQDPGMELHLIHYSYGVNSTEKGDLSSESTVSRIRTEHFPLTLESARPSHTSQYLCASSRLESLGNTIYFGEGSWLTVVEDLNKVFPPEVAVFEPSEAEISHTQKATLVCLATGFFPDHVELSWWVNGKEVHSGVSTDPQPLKEQPALNDSRYCLSSRLRVSATFWQNPRNHFRCQVQFYGLSENDEWTQDRAKPVTQIVSAEAWGRADCGFTSVSYQQGVLSATILYEILLGKATLYAVLVSALVLMAMVKRKDF", "No. of Cells": 4},
      {"molecule": "TCR_23: TCR to … / A*24:02 (protein) TCR alpha: AQSVTQLDSHVSVSEGTPVLLRCNYSSSYSPSLFWYVQHPNKGLQLLLKYTSAATLVKGINGFEAEFKKSETSFHLTKPSAHMSDAAEYFCVVTGAGSYQLTFGKGTKLSVIPNIQNPDPAVYQLRDSKSSDKSVCLFTDFDSQTNVSQSKDSDVYITDKTVLDMRSMDFKSNSAVAWSNKSDFACANAFNNSIIPEDTFFPSPESSCDVKLVEKSFETDTNLNFQNLSVIGFRILLLKVAGFNLLMTLRLWSS TCR beta: DADVTQTPRNRITKTGKRIMLECSQTKGHDRMYWYRQDPGLGLRLIYYSFDVKDINKGEISDGYSVSRQAQAKFSLSLESAIPNQTALYFCATSDDSEKLFFGSGTQLSVLEDLNKVFPPEVAVFEPSEAEISHTQKATLVCLATGFFPDHVELSWWVNGKEVHSGVSTDPQPLKEQPALNDSRYCLSSRLRVSATFWQNPRNHFRCQVQFYGLSENDEWTQDRAKPVTQIVSAEAWGRADCGFTSVSYQQGVLSATILYEILLGKATLYAVLVSALVLMAMVKRKDF", "No. of Cells": 6},
      {"molecule": "TCR_28: TCR to … / A*02:01 (protein) TCR alpha: AQSVSQHNHHVILSEAASLELGCNYSYGGTVNLFWYVQYPGQHLQLLLKYFSGDPLVKGIKGFEAEFIKSKFSFNLRKPSVQWSDTAEYFCAWILSGNTPLVFGKGTRLSVIANIQNPDPAVYQLRDSKSSDKSVCLFTDFDSQTNVSQSKDSDVYITDKTVLDMRSMDFKSNSAVAWSNKSDFACANAFNNSIIPEDTFFPSPESSCDVKLVEKSFETDTNLNFQNLSVIGFRILLLKVAGFNLLMTLRLWSS TCR beta: EAGVAQSPRYKIIEKRQSVAFWCNPISGHATLYWYQQILGQGPKLLIQFQNNGVVDDSQLPKDRFSAERLKGVDSTLKIQPAKLEDSAVYLCASSLGTGGTEAFFGQGTRLTVVEDLNKVFPPEVAVFEPSEAEISHTQKATLVCLATGFFPDHVELSWWVNGKEVHSGVSTDPQPLKEQPALNDSRYCLSSRLRVSATFWQNPRNHFRCQVQFYGLSENDEWTQDRAKPVTQIVSAEAWGRADCGFTSVSYQQGVLSATILYEILLGKATLYAVLVSALVLMAMVKRKDF", "No. of Cells": 5},
      {"molecule": "TCR_31: TCR to … / A*24:02 (protein) TCR alpha: ILNVEQSPQSLHVQEGDSTNFTCSFPSSNFYALHWYRWETAKSPEALFVMTLNGDEKKKGRISATLNTKEGYSYLYIKGSQPEDSATYLCALGNTGGFKTIFGAGTRLFVKANIQNPDPAVYQLRDSKSSDKSVCLFTDFDSQTNVSQSKDSDVYITDKTVLDMRSMDFKSNSAVAWSNKSDFACANAFNNSIIPEDTFFPSPESSCDVKLVEKSFETDTNLNFQNLSVIGFRILLLKVAGFNLLMTLRLWSS TCR beta: DSGVTQTPKHLITATGQRVTLRCSPRSGDLSVYWYQQSLDQGLQFLIQYYNGEERAKGNILERFSAQQFPDLHSELNLSSLELGDSALYFCASSVEVQARSDTQYFGPGTRLTVLEDLKNVFPPKVAVFEPSEAEISHTQKATLVCLATGFYPDHVELSWWVNGKEVHSGVSTDPQPLKEQPALNDSRYCLSSRLRVSATFWQNPRNHFRCQVQFYGLSENDEWTQDRAKPVTQIVSAEAWGRADCGFTSESYQQGVLSATILYEILLGKATLYAVLVSALVLMAMVKRKDSRG", "No. of Cells": 4},
      {"molecule": "TCR_29: TCR to … / B*07:02 (protein) TCR alpha: RKEVEQDPGPFNVPEGATVAFNCTYSNSASQSFFWYRQDCRKEPKLLMSVYSSGNEDGRFTAQLNRASQYISLLIRDSKLSDSATYLCVVNDPNSGNTPLVFGKGTRLSVIANIQNPDPAVYQLRDSKSSDKSVCLFTDFDSQTNVSQSKDSDVYITDKTVLDMRSMDFKSNSAVAWSNKSDFACANAFNNSIIPEDTFFPSPESSCDVKLVEKSFETDTNLNFQNLSVIGFRILLLKVAGFNLLMTLRLWSS TCR beta: GAVVSQHPSRVICKSGTSVKIECRSLDFQATTMFWYRQFPKQSLMLMATSNEGSKATYEQGVEKDKFLINHASLTLSTLTVTSAHPEDSSFYICSARDQASQNTGELFFGEGSRLTVLEDLKNVFPPKVAVFEPSEAEISHTQKATLVCLATGFYPDHVELSWWVNGKEVHSGVSTDPQPLKEQPALNDSRYCLSSRLRVSATFWQNPRNHFRCQVQFYGLSENDEWTQDRAKPVTQIVSAEAWGRADCGFTSESYQQGVLSATILYEILLGKATLYAVLVSALVLMAMVKRKDSRG", "No. of Cells": 4},
      {"molecule": "TCR_25: TCR to … / A*01:01 (protein) TCR alpha: RKEVEQDPGPFNVPEGATVAFNCTYSNSASQSFFWYRQDCRKEPKLLMSVYSSGNEDGRFTAQLNRASQYISLLIRDSKLSDSATYLCVVNKEDRLMFGDGTQLVVKPNIQNPDPAVYQLRDSKSSDKSVCLFTDFDSQTNVSQSKDSDVYITDKTVLDMRSMDFKSNSAVAWSNKSDFACANAFNNSIIPEDTFFPSPESSCDVKLVEKSFETDTNLNFQNLSVIGFRILLLKVAGFNLLMTLRLWSS TCR beta: SAVISQKPSRDICQRGTSLTIQCQVDSQVTMMFWYRQQPGQSLTLIATANQGSEATYESGFVIDKFPISRPNLTFSTLTVSNMSPEDSSIYLCSVDRDRNTGELFFGEGSRLTVLEDLKNVFPPKVAVFEPSEAEISHTQKATLVCLATGFYPDHVELSWWVNGKEVHSGVSTDPQPLKEQPALNDSRYCLSSRLRVSATFWQNPRNHFRCQVQFYGLSENDEWTQDRAKPVTQIVSAEAWGRADCGFTSESYQQGVLSATILYEILLGKATLYAVLVSALVLMAMVKRKDSRG", "No. of Cells": 5},
      {"molecule": "TCR_20: TCR to … / A*02:01 (protein) TCR alpha: RKEVEQDPGPFNVPEGATVAFNCTYSNSASQSFFWYRQDCRKEPKLLMSVYSSGNEDGRFTAQLNRASQYISLLIRDSKLSDSATYLCVVNPTGTASKLTFGTGTRLQVTLDIQNPDPAVYQLRDSKSSDKSVCLFTDFDSQTNVSQSKDSDVYITDKTVLDMRSMDFKSNSAVAWSNKSDFACANAFNNSIIPEDTFFPSPESSCDVKLVEKSFETDTNLNFQNLSVIGFRILLLKVAGFNLLMTLRLWSS TCR beta: DSGVTQTPKHLITATGQRVTLRCSPRSGDLSVYWYQQSLDQGLQFLIQYYNGEERAKGNILERFSAQQFPDLHSELNLSSLELGDSALYFCASSVAGGLYEQFFGPGTRLTVLEDLKNVFPPKVAVFEPSEAEISHTQKATLVCLATGFYPDHVELSWWVNGKEVHSGVSTDPQPLKEQPALNDSRYCLSSRLRVSATFWQNPRNHFRCQVQFYGLSENDEWTQDRAKPVTQIVSAEAWGRADCGFTSESYQQGVLSATILYEILLGKATLYAVLVSALVLMAMVKRKDSRG", "No. of Cells": 7}
    ]}
  ]
}
